Assay results from patent US20200339511A1, “Substituted indoline derivatives as dengue viral replication inhibitors” (priority 2016, published 2020).

Tests used:
DENV-2 strain 16681 = assay: Tetravalent RT-qPCR assay, serotype 2; type: cell-based, Dengue virus; settings: RT-qPCR serotype 2 16681, Protocol A
Protocol: (§1) Tetravalent reverse transcriptase quantitative-PCR (RT-qPCR) assay The antiviral activity of the compounds of the invention was tested against DENV-1 strain TC974#666 (NCPV), DENV-2 strain 16681, DENV-3 strain H87 (NCPV) and DENV-4 strain H241 (NCPV) in a RT-qPCR assay. Therefore, Vero cells were infected with either DENV-1, or -2, or -3, or -4 in the presence or absence of test compounds. At day 3 post-infection, the cells were lysed and cell lysates were used to prepare cDNA of both a viral target (the 3′UTR of DENV; Table 2) and a cellular reference gene (β-actin, Table 2). Subsequently, a duplex real time PCR was performed on a Lightcycler480 instrument. The generated Cp value is inversely proportional to the amount of RNA expression of these targets. Inhibition of DENV replication by a test compound results in a shift of Cp's for the 3′UTR gene. On the other hand, if a test compound is toxic to the cells, a similar effect on β-actin expression will be observed. The comparative ΔΔCp method is used to calculate EC50, which is based on the relative gene expression of the target gene (3′UTR) normalized with the cellular housekeeping gene (β-actin). In addition, CC50 values are determined based on the Cp values acquired for the housekeeping gene β-actin.
(§2) The culture medium consisted of minimal essential medium supplemented with 2% of heat-inactivated fetal calf serum, 0.04% gentamycin (50mg/mL) and 2 mM of L-glutamine. Vero cells, obtained from ECACC, were suspended in culture medium and 75 μL/well was added in 96-well plates (10000 cells/well), which already contain the antiviral compounds. […] In addition, each plate contains wells which are assigned as virus controls (containing cells and virus in the absence of compound) and cell controls (containing cells in the absence of virus and compound). Once the cells were added in the plates, the plates were incubated in a fully humidified incubator (37° C., 5% CO2) until the next day. Dengue viruses serotype-1, 2, 3 and 4 were diluted in order to obtain a Cp of ˜22-24 in the assay. Therefore, 25 μL of virus suspension was added to all the wells containing test compound and to the wells assigned as virus control. In parallel, 25 μL of culture medium was added to the cell controls. Next, the plates were incubated for 3 days in a fully humidified incubator (37° C., 5% CO2). After 3 days, the supernatant was removed from the wells and the cells were washed twice with ice-cold PBS (˜100 μL). The cell pellets within the 96-well plates were stored at −80° C. for at least 1 day. Next, RNA was extracted using the Cells-to-CT™ lysis kit, according to the manufacturer's guideline (Life Technologies). The cell lysates can be stored at −80° C. or immediately used in the reverse transcription step.
(§3) In preparation of the reverse transcription step, mix A (table 3A) was prepared and 7.57 μL/well was dispensed in a 96-well plate. After addition of 5 μL of the cell lysates, a five minute denaturation step at 75° C. was performed (table 3B). Afterwards, 7.43 μL of mix B was added (table 3C) and the reverse transcription step was initiated (table 3D) to generate cDNA.
(§4) Finally, a RT-qPCR mix was prepared, mix C (table 4A), and 22.02 μL/well was dispensed in 96-well LightCycler qPCR plates to which 3μL of cDNA was added and the qPCR was performed according to the conditions in table 4B on a LightCycler 480.
(§5) Using the LightCycler software and an in-house LIMS system, dose response curves for each compound were calculated and the half maximal effective concentration (EC50) and the half maximal cytotoxic concentration (CC50) were determined (Tables 5-8).

DENV-2 16681 strain = assay: DENV-2 antiviral assay (eGFP-labeled virus in Vero cells); type: cell-based, Dengue virus; settings: SI=CC50/EC50, DENV-2 antiviral assay
Protocol: The antiviral activity of all the compounds of the invention was tested the against DENV-2 16681 strain which was labeled with enhanced green fluorescent protein (eGPF). The culture medium consists of minimal essential medium supplemented with 2% of heat-inactivated fetal calf serum, 0.04% gentamycin (50 mg/mL) and 2 mM of L-glutamine. Vero cells, obtained from ECACC, were suspended in culture medium and 25 μL was added to 384-well plates (2500 cells/well), which already contain the antiviral compounds. Typically, these plates contain a 5-fold serial dilution of 9 dilution steps of the test compound at 200 times the final concentration in 100% DMSO (200 nL). […] Finally, each plate contains wells which are assigned as virus controls (containing cells and virus in the absence of compound), cell controls (containing cells in the absence of virus and compound) and medium controls (containing medium in the absence of cells, virus and compounds). To the wells assigned as medium control, 25 μL of culture medium was added instead of Vero cells. Once the cells were added to the plates, the plates were incubated for 30 minutes at room temperature to allow the cells to distribute evenly within the wells. Next, the plates were incubated in a fully humidified incubator (37° C., 5% CO2) until the next day. Then, DENV-2 strain 16681, labeled with eGFP, was added at a multiplicity of infection (MOI) of 0.5. Therefore, 15 μL of virus suspension was added to all the wells containing test compound and to the wells assigned as virus control. In parallel, 15 μL of culture medium was added to the medium and cell controls. Next, the plates were incubated for 3 days in a fully humidified incubator (37° C., 5% CO2). At the day of the read out, the eGFP fluorescence was measured using an automated fluorescence microscope at 488 nm (blue laser). Using an in-house LIMS system, inhibition dose response curves for each compound were calculated and the half maximal effective concentration (EC50) was determined. Therefore, the percent inhibition (I) for every test concentration is calculated using the following formula: I=100*(ST-SCC)/(SVC-SCC), ST, SCC and SVC are the amount of eGFP signal in the test compound, cell control and virus control wells, respectively. The EC50 represents the concentration of a compound at which the virus replication is inhibited with 50%, as measured by a 50% reduction of the eGFP fluorescent intensity compared to the virus control. The EC50 is calculated using linear interpolation (Table 1).

DENV-3 strain H87 = assay: Tetravalent RT-qPCR assay, serotype 3; type: cell-based, Dengue virus; settings: RT-qPCR serotype 3 H87, Protocol A
Protocol: as §1, §2, §3, §4, §5

DENV-4 strain H241 = assay: Tetravalent RT-qPCR assay, serotype 4; type: cell-based, Dengue virus; settings: RT-qPCR serotype 4 H241, Protocol A
Protocol: as §1, §2, §3, §4, §5

DENV-1 strain TC974#666 = assay: Tetravalent RT-qPCR assay, serotype 1; type: cell-based, Dengue virus; settings: RT-qPCR serotype 1 TC974#666, Protocol A
Protocol: as §1, §2, §3, §4, §5

DENV-2 = settings: analogous DENV-2 antiviral assay, reported activity; cited from earlier work

For `COc1cc(NC(C(=O)N2CCc3ccc(OC(F)(F)F)cc32)c2ccc(Cl)cc2F)cc(OCCO)c1` (single isomer, unassigned) [Compound 6B, 2-(4-chloro-2-fluorophenyl)-2-((3-(2-hydroxyethoxy)-5-methoxyphenyl)amino)-1-(6-(trifluoromethoxy)indolin-1-yl)ethanone], which SI (DENV-2 strain 16681) is on record?
Its SI is 4400.

And the SI (DENV-2 16681 strain)?
The SI was 4900.

What about the SI (DENV-3 strain H87) of the same compound?
The SI was 253.

And the SI (DENV-4 strain H241)?
The SI was 27.

What about the SI (DENV-1 strain TC974#666) of the same compound?
The SI was 1590.

With `COc1cc(NC(C(=O)N2CCc3cc(OC)c(OC(F)(F)F)cc32)c2ccc(Cl)cc2)cc(OCCO)c1` (single isomer, unassigned) [Compound 13A, 2-(4-chlorophenyl)-2-((3-(2-hydroxyethoxy)-5-methoxyphenyl)amino)-1-(5-methoxy-6-(trifluoromethoxy)indolin-1-yl)ethanone] as the compound, how does the SI (DENV-2 strain 16681) read?
The SI was greater than 4280.

And the SI (DENV-2 16681 strain)?
The SI was 3970.

And the SI (DENV-3 strain H87)?
Its SI is greater than 78.

And the SI (DENV-4 strain H241)?
Its SI is greater than 9.4.

What about the SI (DENV-1 strain TC974#666) of the same compound?
The SI was greater than 416.

Which results are given for `COc1cc(NC(C(=O)N2CCc3cc(OC)c(C(F)(F)F)cc32)c2ccc(Cl)cc2F)cc(OCCO)c1` (single isomer, unassigned) [Compound 8B, 2-(4-chloro-2-fluorophenyl)-2-((3-(2-hydroxyethoxy)-5-methoxyphenyl)amino)-1-(5-methoxy-6-(trifluoromethyl)indolin-1-yl)ethanone]?
SI (DENV-2 strain 16681): 5510; SI (DENV-2 16681 strain): >49900; SI (DENV-3 strain H87): >83; SI (DENV-4 strain H241): 98; SI (DENV-1 strain TC974#666): >454

Which SI (DENV-2 strain 16681) does the source give for `COc1cc(NC(C(=O)N2CCc3ccc(C(F)(F)F)cc32)c2ccc(Cl)cc2OC)cc(OCCO)c1` (single isomer, unassigned) [Compound 1B, 2-(4-chloro-2-methoxyphenyl)-2-((3-(2-hydroxyethoxy)-5-methoxyphenyl)amino)-1-(6-(trifluoromethyl)indolin-1-yl)ethanone] here?
Its SI is 1100.

What about the SI (DENV-2 16681 strain) of the same compound?
Its SI is 3578.

And the SI (DENV-3 strain H87)?
Its SI is 46.

And the SI (DENV-4 strain H241)?
The SI was 12.

What about the SI (DENV-1 strain TC974#666) of the same compound?
Its SI is 1110.

Which results are given for `COc1cc(NC(C(=O)N2CCc3ccc(OC(F)(F)F)cc32)c2ccc(Cl)cc2OC)cc(OCCO)c1` (single isomer, unassigned) [Compound 5A, 2-(4-chloro-2-methoxyphenyl)-2-((3-(2-hydroxyethoxy)-5-methoxyphenyl)amino)-1-(6-(trifluoromethoxy)indolin-1-yl)ethanone]?
SI (DENV-2 strain 16681): 2680; SI (DENV-2 16681 strain): 7000; SI (DENV-3 strain H87): 214; SI (DENV-4 strain H241): 16; SI (DENV-1 strain TC974#666): 1650

Which SI (DENV-2) does the source give for `CNC(=O)c1cccc(NC(C(=O)c2c[nH]c3ccccc23)c2ccccc2)c1` (centres unmarked) [(170) of WO-2013/045516] here?
Its SI is 58.

With `COc1cc(NC(C(=O)N2CCc3cc(F)c(C(F)(F)F)cc32)c2ccc(Cl)cc2)cc(OCCO)c1` (single isomer, unassigned) [Compound 12A, 2-(4-chlorophenyl)-1-(5-fluoro-6-(trifluoromethyl)indolin-1-yl)-2-((3-(2-hydroxyethoxy)-5-methoxyphenyl)amino)ethanone] as the compound, how does the SI (DENV-2 strain 16681) read?
The SI was greater than 794.

And the SI (DENV-2 16681 strain)?
The SI was 5020.

And the SI (DENV-3 strain H87)?
Its SI is greater than 67.

What about the SI (DENV-4 strain H241) of the same compound?
Its SI is 24.

And the SI (DENV-1 strain TC974#666)?
The SI was greater than 934.

Which SI (DENV-2 strain 16681) does the source give for `COc1cc(NC(C(=O)N2CCc3cc(OC)c(C(F)(F)F)cc32)c2ccc(Cl)cc2OC)cc(OCCO)c1` (single isomer, unassigned) [Compound 11B, 2-(4-chloro-2-methoxyphenyl)-2-((3-(2-hydroxyethoxy)-5-methoxyphenyl)amino)-1-(5-methoxy-6-(trifluoromethyl)indolin-1-yl)ethanone] here?
The SI was 4840.

What about the SI (DENV-2 16681 strain) of the same compound?
The SI was greater than 33700.

What about the SI (DENV-3 strain H87) of the same compound?
Its SI is greater than 139.

And the SI (DENV-4 strain H241)?
The SI was 20.

What about the SI (DENV-1 strain TC974#666) of the same compound?
Its SI is greater than 352.

Which SI (DENV-2 strain 16681) does the source give for `COc1cc(NC(C(=O)N2CCc3c(C)cc(C(F)(F)F)cc32)c2ccc(Cl)cc2)cc(OCCO)c1` (single isomer, unassigned) [Compound 10B, 2-(4-chlorophenyl)-2-((3-(2-hydroxyethoxy)-5-methoxy-phenyl)amino)-1-(4-methyl-6-(trifluoromethyl)indolin-1-yl)ethanone] here?
The SI was 2670.

And the SI (DENV-2 16681 strain)?
Its SI is 5470.

And the SI (DENV-3 strain H87)?
The SI was greater than 199.

And the SI (DENV-4 strain H241)?
Its SI is greater than 13.

And the SI (DENV-1 strain TC974#666)?
The SI was greater than 1810.

What does the source list for `COc1cc(NC(C(=O)N2CCc3ccc(OC(F)(F)F)cc32)c2ccc(Cl)cc2)cc(OCCO)c1` (single isomer, unassigned) [Compound 3A, 2-(4-chlorophenyl)-2-((3-(2-hydroxyethoxy)-5-methoxyphenyl)amino)-1-(6-(trifluoromethoxy)indolin-1-yl)ethanone]?
SI (DENV-2 strain 16681): 4860; SI (DENV-2 16681 strain): 4530; SI (DENV-3 strain H87): 169; SI (DENV-4 strain H241): 32; SI (DENV-1 strain TC974#666): 1210

Which SI (DENV-2 strain 16681) does the source give for `COc1cc(NC(C(=O)N2CCc3cc(OC)c(C(F)(F)F)cc32)c2ccc(Cl)cc2)cc(OCCO)c1` (single isomer, unassigned) [Compound 7B, 2-(4-chlorophenyl)-2-((3-(2-hydroxyethoxy)-5-methoxyphenyl)amino)-1-(5-methoxy-6-(trifluoromethyl)indolin-1-yl)ethanone] here?
The SI was 5780.

And the SI (DENV-2 16681 strain)?
The SI was 10000.

What about the SI (DENV-3 strain H87) of the same compound?
The SI was 155.

And the SI (DENV-4 strain H241)?
Its SI is 25.

And the SI (DENV-1 strain TC974#666)?
The SI was 802.

Which SI (DENV-2 strain 16681) does the source give for `COc1cc(NC(C(=O)N2CCc3c(C)cc(OC(F)(F)F)cc32)c2ccc(Cl)cc2)cc(OCCO)c1` (single isomer, unassigned) [Compound 9B, 2-(4-chlorophenyl)-2-((3-(2-hydroxyethoxy)-5-methoxy-phenyl)amino)-1-(4-methyl-6-(trifluoromethoxy)indolin-1-yl)ethanone] here?
Its SI is 11900.

And the SI (DENV-2 16681 strain)?
The SI was 8440.

What about the SI (DENV-3 strain H87) of the same compound?
The SI was greater than 191.

What about the SI (DENV-4 strain H241) of the same compound?
The SI was 23.

And the SI (DENV-1 strain TC974#666)?
The SI was greater than 1800.
